Pooled drug test results. Numbers come from NIAID ChemDB, via PubChem.

Common to all: tests in culture; agent: Mycobacterium avium complex; read-out: MIC

Rows are shuffled and stem from different studies.

SMILES,strain,result
CN[C@@H]1[C@H](O[C@H]2[C@H](O[C@H]3[C@H](O)[C@@H](O)[C@H](N=C(N)N)[C@@H](O)[C@@H]3N=C(N)N)O[C@@H](C)[C@]2(O)C=O)O[C@@H](CO)[C@H](O)[C@H]1O,TMC 1406,0.39 µg/mL
CN[C@@H]1[C@H](O[C@H]2[C@H](O[C@H]3[C@H](O)[C@@H](O)[C@H](N=C(N)N)[C@@H](O)[C@@H]3N=C(N)N)O[C@@H](C)[C@]2(O)C=O)O[C@@H](CO)[C@H](O)[C@H]1O,13008 (serotype 20),0.8 µg/mL
NC[C@H]1O[C@H](O[C@H]2[C@H](O)[C@@H](O[C@H]3O[C@H](CO)[C@@H](O)[C@H](N)[C@H]3O)[C@H](N)C[C@@H]2N)[C@H](O)[C@@H](O)[C@@H]1O,N-981 (HIV+),8 µg/mL
Clc1ccc(CSc2nc3ccccc3[nH]2)cc1,MY330/88,>32 µM
CO[C@H]1/C=C/O[C@@]2(C)Oc3c(C)c(O)c4c(O)c(c(/C=N/N5CCN(C/C=C/c6ccccc6)CC5)c(O)c4c3C2=O)NC(=O)/C(C)=C\C=C\[C@H](C)[C@H](O)[C@@H](C)[C@@H](O)[C@@H](C)[C@H](OC(C)=O)[C@@H]1C,SK-12,0.06 µg/mL
Fc1cccc(Cl)c1CSc1nc2ccccc2[nH]1,MY330/88,62 µM
NCCC[C@H](N)CC(=O)N[C@H]1CNC(=O)[C@H]([C@H]2C[C@H](O)NC(N)=N2)NC(=O)/C(=C/NC(N)=O)NC(=O)[C@H](CO)NC(=O)[C@H](CO)NC1=O,Isolate 53,25 µg/mL
CN[C@@H]1[C@H](O[C@H]2[C@H](O[C@H]3[C@H](O)[C@@H](O)[C@H](N=C(N)N)[C@@H](O)[C@@H]3N=C(N)N)O[C@@H](C)[C@]2(O)C=O)O[C@@H](CO)[C@H](O)[C@H]1O,Isolate C-49,100 µg/mL
CO[C@H]1/C=C/O[C@@]2(C)Oc3c(C)c(O)c4c(O)c(c(/C=N/N5CCN(C)CC5)c(O)c4c3C2=O)NC(=O)/C(C)=C\C=C\[C@H](C)[C@H](O)[C@@H](C)[C@@H](O)[C@@H](C)[C@H](OC(C)=O)[C@@H]1C,1008,16 µg/mL
NC1CCCCN(c2c(F)cc3c(=O)c(C(=O)O)cn(C4CC4)c3c2F)C1=O,1915112,32 µg/mL
CC[C@@H](CO)NCCN[C@@H](CC)CO,155-4,3.8 µg/mL
CCn1cc(C(=O)O)c(=O)c2cc(F)c(N3CCNCC3)nc21,CIPT 14031002,>40 µg/mL
NC[C@H]1O[C@H](O[C@H]2[C@H](O)[C@@H](O[C@H]3O[C@H](CO)[C@@H](O)[C@H](N)[C@H]3O)[C@H](N)C[C@@H]2N)[C@H](O)[C@@H](O)[C@@H]1O,Isolate 122,50 µg/mL
NCC[C@H](O)C(=O)N[C@@H]1C[C@H](N)[C@@H](O[C@H]2O[C@H](CN)[C@@H](O)[C@H](O)[C@H]2O)[C@H](O)[C@H]1O[C@H]1O[C@H](CO)[C@@H](O)[C@H](N)[C@H]1O,PLR-3/HIV+,1.25 µg/mL
FC(F)(F)c1cc(CSc2nc3ccccc3[nH]2)cc(C(F)(F)F)c1,MY330/88,>125 µM
NC1CCN(c2c(F)cc3c(=O)c(C(=O)O)cn(C4CC4)c3c2F)C1,PI12/39,8 µg/mL
NCC[C@H](O)C(=O)N[C@@H]1C[C@H](N)[C@@H](O[C@H]2O[C@H](CN)[C@@H](O)[C@H](O)[C@H]2O)[C@H](O)[C@H]1O[C@H]1O[C@H](CO)[C@@H](O)[C@H](N)[C@H]1O,1257/HIV-,4 µg/mL
NC[C@@H]1O[C@H](O[C@H]2[C@@H](O)[C@H](O[C@@H]3[C@@H](O)[C@H](N)C[C@H](N)[C@H]3O[C@H]3O[C@H](CO)[C@@H](O)C[C@H]3N)O[C@@H]2CO)[C@H](N)[C@@H](O)[C@@H]1O[C@H]1O[C@H](CO)[C@@H](O)[C@H](O)[C@@H]1O,Isolate 64,6.25 µg/mL
CCSc1nc2ccccc2[nH]1,MY330/88,1000 µM
CN1CC2CCC1CN2c1c(F)cc2c(=O)c(C(=O)O)cn(C3CC3)c2c1F,1988557,2 µg/mL
CCn1cc(C(=O)O)c(=O)c2cc(F)c(N3CCN(C)CC3)cc21,CIPT 140310030,20 µg/mL
CC[C@H]1OC(=O)[C@H](C)[C@@H](O[C@H]2C[C@@](C)(OC)[C@@H](O)[C@H](C)O2)[C@H](C)[C@@H](O[C@@H]2O[C@H](C)C[C@H](N(C)C)[C@H]2O)[C@](C)(O)C[C@@H](C)C(=O)[C@H](C)[C@@H](O)[C@]1(C)O,3220,32 µg/mL
CC(C)N=c1cc2n(-c3ccc(Cl)cc3)c3ccccc3nc-2cc1Nc1ccc(Cl)cc1,804/HIV+,0.25 µg/mL
CN1CCN(c2cc3c(cc2F)c(=O)c(C(=O)O)cn3-c2ccc(F)cc2)CC1,3212,16 µg/mL
CC1CN(c2c(F)cc3c(=O)c(C(=O)O)cn(C4CC4)c3c2F)C(C)CN1,PI12/39,2 µg/mL
Cc1ccc(CSc2nc3ccccc3[nH]2)cc1,MY330/88,62 µM
CC(C)N=c1cc2n(-c3ccc(Cl)cc3)c3ccccc3nc-2cc1Nc1ccc(Cl)cc1,562/HIV+,0.12 µg/mL
NC[C@H]1O[C@H](O[C@H]2[C@H](O)[C@@H](O[C@H]3O[C@H](CO)[C@@H](O)[C@H](N)[C@H]3O)[C@H](N)C[C@@H]2N)[C@H](N)[C@@H](O)[C@@H]1O,Isolate 64,3.13 µg/mL
CCN(CC)CC1CCN(c2c(F)cc3c(=O)c(C(=O)O)cn(C4CC4)c3c2F)C1,1172733,4 µg/mL
Clc1cccc(CSc2nc3ccccc3[nH]2)c1,MY330/88,62 µM
NNC(=O)c1ccncc1,1124,4 µg/mL
CN(C)C1CCN(c2c(F)cc3c(=O)c(C(=O)O)cn(C4CC4)c3c2F)C1,1760694,2 µg/mL
NCCC(O)C(N)CC(=O)NC1CNC(=O)C(C2CCN=C(N)N2)NC(=O)/C(=C/NC(N)=O)NC(=O)C(CO)NC(=O)C(CO)NC1=O,13011 (serotype 16),12.5 µg/mL
CC[C@@H](CO)NCCN[C@@H](CC)CO,3213,32 µg/mL
CC1CN(c2c(F)c(N)c3c(=O)c(C(=O)O)cn(C4CC4)c3c2F)CCN1C,PI12/39,0.5 µg/mL
NC[C@H]1O[C@H](O[C@H]2[C@H](O[C@@H]3O[C@H](CO)[C@@H](O)[C@H]3O)[C@@H](O)[C@H](N)C[C@@H]2N)[C@H](N)[C@@H](O)[C@@H]1O,TMC 1403,0.1 µg/mL
O=C(O)c1cn(C2CC2)c2c(F)c(N3CC4CC3CN4)c(F)cc2c1=O,1760694,4 µg/mL
N#Cc1ccc(CSc2nc3ccccc3[nH]2)cc1,MY330/88,62 µM
CC[C@@H](CO)NCCN[C@@H](CC)CO,N-251 (HIV-),16 µg/mL

Repeating the first 2 entries:

SMILES,strain,result
CN[C@@H]1[C@H](O[C@H]2[C@H](O[C@H]3[C@H](O)[C@@H](O)[C@H](N=C(N)N)[C@@H](O)[C@@H]3N=C(N)N)O[C@@H](C)[C@]2(O)C=O)O[C@@H](CO)[C@H](O)[C@H]1O,TMC 1406,0.39 µg/mL
CN[C@@H]1[C@H](O[C@H]2[C@H](O[C@H]3[C@H](O)[C@@H](O)[C@H](N=C(N)N)[C@@H](O)[C@@H]3N=C(N)N)O[C@@H](C)[C@]2(O)C=O)O[C@@H](CO)[C@H](O)[C@H]1O,13008 (serotype 20),0.8 µg/mL